{"source": "patent US6518061", "molecular_target": "IL-13 receptor (IL-13R) on human tumor cells (human)", "experiment": "cell-based or functional assay"}
{"substance": "cphIL-13-PE38QQR (circularly permuted human IL-13 fused to PE38QQR) (from UniProt P11439 278-389; P11439 406-638)", "values": [{"measurement": "IC50, cytotoxicity on several glioma cell lines", "result": "< 0.1", "unit": "ng/mL"}]}
